Among the data in patent US20190167593A1, “CYCLOHEXENE DERIVATIVE OR PHARMACEUTICALLY ACCEPTABLE SALT THEREOF, AND APPLICATION OF SAME” (priority 2016, published 2019) are IC50 values, retold here.

The target of the test is H274Y drug-resistant mutant NA (Influenza A virus, UniProt P03468, H260Y). The settings on record: read-out: DRUG-RESISTANT MUTANT IC50.

By IC50 is commonly meant the point on the concentration scale where inhibition reaches its midpoint. As to Peramivir, the IC50 is 26.9 nM.
